Measurements taken from PMC8814042.

Chains of the proteins cited; added tags and fusions are not shown. A change or cut given only in a name is not applied to a line headed by its entry. A line that says so, or that is headed by a name, gives the form on record, which may keep a tag or linker. Residues count along the entry.
UniProt P02745, 23-245: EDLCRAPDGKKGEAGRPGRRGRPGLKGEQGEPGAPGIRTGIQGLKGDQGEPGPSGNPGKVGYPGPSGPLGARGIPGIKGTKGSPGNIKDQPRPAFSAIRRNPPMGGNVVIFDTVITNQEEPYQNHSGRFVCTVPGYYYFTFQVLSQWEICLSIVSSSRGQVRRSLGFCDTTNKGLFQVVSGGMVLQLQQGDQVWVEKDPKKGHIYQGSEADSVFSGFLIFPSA
human C1q (biotinylated), UniProt P02746, 28-253: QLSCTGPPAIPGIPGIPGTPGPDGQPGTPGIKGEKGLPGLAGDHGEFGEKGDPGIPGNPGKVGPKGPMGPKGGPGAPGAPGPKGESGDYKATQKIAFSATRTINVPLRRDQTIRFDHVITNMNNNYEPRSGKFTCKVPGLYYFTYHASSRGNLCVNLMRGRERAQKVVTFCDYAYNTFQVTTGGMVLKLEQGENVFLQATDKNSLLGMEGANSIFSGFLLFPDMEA
human C1q (biotinylated), UniProt P02747, 29-245: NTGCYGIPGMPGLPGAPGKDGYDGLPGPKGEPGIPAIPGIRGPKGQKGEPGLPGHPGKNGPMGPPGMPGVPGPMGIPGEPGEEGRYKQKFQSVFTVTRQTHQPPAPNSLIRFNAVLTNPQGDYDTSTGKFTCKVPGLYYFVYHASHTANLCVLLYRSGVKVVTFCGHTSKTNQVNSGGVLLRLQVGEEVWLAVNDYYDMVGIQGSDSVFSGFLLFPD
10E8v4 EFTAE (G236A/S267E/H268F/S324T/I332E Fc variant) (human), light, as listed by the source, chain 2 of 2: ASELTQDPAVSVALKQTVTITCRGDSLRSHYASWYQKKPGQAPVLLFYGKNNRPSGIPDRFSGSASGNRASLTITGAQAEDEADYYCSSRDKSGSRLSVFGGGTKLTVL
10E8v4 EFTAE (G236A/S267E/H268F/S324T/I332E Fc variant) (human), heavy, as listed by the source, chain 1 of 2: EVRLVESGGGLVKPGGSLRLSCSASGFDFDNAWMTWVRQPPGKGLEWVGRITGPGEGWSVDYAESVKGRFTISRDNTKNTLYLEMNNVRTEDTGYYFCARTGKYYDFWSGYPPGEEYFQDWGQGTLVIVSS

Target: 10E8v4 EFTAE (G236A/S267E/H268F/S324T/I332E Fc variant) (human)
Assay: bead-based flow cytometry (Luminex MAGPIX); antibody held on NeutrAvidin MagPlex beads coated with biotinylated MPER peptide (overnight, 4 °C); 1.0 µg/ml biotinylated human C1q, 1 h RT; streptavidin-PE; 1X PBS, 0.1% BSA, 0.05% Tween-20

- fold increase of C1q binding against unmodified 10E8v4: 2 fold
Substance: human C1q (biotinylated) (from UniProt P02745 23-245; P02746 28-253; P02747 29-245) (complex)
